This is an account of results in patent US20240124553A1.

Like-named read-outs stand apart in the source and are kept apart here.

Assay [1] has as its target SINV-WEEV (CBA87) chimeric virus (western equine encephalitis virus).
The target is the same in assay [2]. The source holds these as a separate data set.

In assay [1], “Du-D1-Mo-D2 MXRA8-Fc (chimeric duck D1 - mouse D2 MXRA8, duck stalk) (from UniProt Q9DBV4 23-65; Q9DBV4 195-293) (Fc fusion)” showed a neutralisation of SINV-WEEV infection; IC50 (read off the curve) of 0.4 µg/mL. As for duck MXRA8-Fc (Fc fusion), the neutralisation of SINV-WEEV infection; IC50 (read off the curve) in assay [1] turned out to be 6 µg/mL; in assay [2], 7 µg/mL.
